Source: paper PMC5342242, “Altering the N-terminal arms of the polymerase manager protein UmuD modulates protein interactions” (PLoS ONE, 2017)

Molecular target: T1, DNA polymerase III α subunit, full-length (E. coli, UniProt P10443 1-1160, in the FRET assay only: labeled with Alexa Fluor 647 C2-maleimide)
T1 construct: α polymerase subunit of DNA polymerase III, E. coli, full-length; Unlabelled in the tryptophan fluorescence titration; also called pol III α; full-length α; source: purified; as previously described [21]
T1 sequence (looked up): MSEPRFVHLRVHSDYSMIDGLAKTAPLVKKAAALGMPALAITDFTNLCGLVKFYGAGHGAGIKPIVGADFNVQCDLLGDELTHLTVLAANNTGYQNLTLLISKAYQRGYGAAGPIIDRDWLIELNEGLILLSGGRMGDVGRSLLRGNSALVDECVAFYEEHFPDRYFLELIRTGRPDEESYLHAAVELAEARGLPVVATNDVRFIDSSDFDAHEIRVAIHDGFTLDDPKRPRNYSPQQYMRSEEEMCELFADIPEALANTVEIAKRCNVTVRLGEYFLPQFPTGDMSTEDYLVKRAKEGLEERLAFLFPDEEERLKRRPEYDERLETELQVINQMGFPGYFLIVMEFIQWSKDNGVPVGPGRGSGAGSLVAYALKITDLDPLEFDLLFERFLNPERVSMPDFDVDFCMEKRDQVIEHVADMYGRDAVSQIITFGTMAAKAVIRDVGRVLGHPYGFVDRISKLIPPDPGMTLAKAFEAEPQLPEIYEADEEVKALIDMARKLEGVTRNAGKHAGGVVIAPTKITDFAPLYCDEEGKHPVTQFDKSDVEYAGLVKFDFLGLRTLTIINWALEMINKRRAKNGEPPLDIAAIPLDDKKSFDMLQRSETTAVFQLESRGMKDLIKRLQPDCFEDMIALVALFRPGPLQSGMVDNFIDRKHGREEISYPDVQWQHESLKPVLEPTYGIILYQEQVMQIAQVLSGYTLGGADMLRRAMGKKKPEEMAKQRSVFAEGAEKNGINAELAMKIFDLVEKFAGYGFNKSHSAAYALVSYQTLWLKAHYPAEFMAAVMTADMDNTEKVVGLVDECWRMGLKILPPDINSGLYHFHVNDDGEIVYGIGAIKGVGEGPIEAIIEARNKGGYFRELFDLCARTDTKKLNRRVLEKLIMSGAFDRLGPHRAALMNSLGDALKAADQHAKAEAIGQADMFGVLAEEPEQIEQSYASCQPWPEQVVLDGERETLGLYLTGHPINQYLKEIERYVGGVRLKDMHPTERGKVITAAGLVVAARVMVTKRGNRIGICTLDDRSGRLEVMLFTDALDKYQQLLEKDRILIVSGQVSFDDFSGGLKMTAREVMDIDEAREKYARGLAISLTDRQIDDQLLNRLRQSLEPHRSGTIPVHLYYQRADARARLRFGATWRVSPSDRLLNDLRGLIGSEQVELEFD
Assay: FRET or BRET; α labeled with Alexa Fluor 647 C2-maleimide (acceptor) and β labeled with Alexa Fluor 488 C5-maleimide (donor); purified UmuD variants added to 40 μM
Settings: both partners purified

B1: β processivity clamp of DNA polymerase III (natural protein, E. coli, UniProt P0A988 1-366, looked up)
chain: MKFTVEREHLLKPLQQVSGPLGGRPTLPILGNLLLQVADGTLSLTGTDLEMEMVARVALVQPHEPGATTVPARKFFDICRGLPEGAEIAVQLEGERMLVRSGRSRFSLSTLPAADFPNLDDWQSEVEFTLPQATMKRLIEATQFSMAHQDVRYYLNGMLFETEGEELRTVATDGHRLAVCSMPIGQSLPSHSVIVPRKGVIELMRMLDGGDNPLRVQIGSNNIRAHVGDFIFTSKLVDGRFPDYRRVLPKNPDKHLEAGCDLLKQAFARAAILSNEKFRGVRLYVSENQLKITANNPEQEEAEEILDVTYSGAEMEIGFNVSYVLDVLNALKCENVRMMLTDSVSSVQIEDAASQSAAYVVMPMRL
modifications: labeled with Alexa Fluor 488 C5-maleimide
notes: β processivity subunit of DNA polymerase III, E. coli; also called β clamp; beta processivity clamp; source: purified; as previously described [21]
  binding result: binds
